Human monoclonal antibodies against the spike receptor-binding domain (heavy:light variable regions). IC50 against pseudoviruses bearing the spike of naturally observed variants; lower = stronger; >10 µg/ml means not reached at the top dose. No active / inactive call. The stated detection limit is 0.0005 µg/ml; values near or below 0.001 µg/ml lie at the floor of the assay.
Tests used:
Test in all cases: pseudovirus neutralization IC50; higher = weaker neutralization
[1] = target: SARS-CoV-2 Omicron BA.1 spike pseudovirus
Method: (§1)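 Single-round VSV luciferase pseudovirus mixed with antibody dilutions for 1 h and put on Huh-7 cells for about a day; IC50 from the dose curve.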

[2] = target: SARS-CoV-2 Omicron BA.2 spike pseudovirus
Method: as §1

[3] = target: SARS-CoV-2 Omicron BA.2.75 spike pseudovirus
Method: as §1

[4] = target: SARS-CoV-2 Omicron BA.5 spike pseudovirus
Method: as §1

[5] = target: SARS-CoV-2 Omicron BQ.1.1 spike pseudovirus
Method: as §1

[6] = target: SARS-CoV-2 Omicron XBB spike pseudovirus
Method: as §1

[7] = target: SARS-CoV-2 early D614G spike pseudovirus
Method: as §1

Binder | pseudovirus neutralization IC50 [1] | pseudovirus neutralization IC50 [2] | pseudovirus neutralization IC50 [3] | pseudovirus neutralization IC50 [4] | pseudovirus neutralization IC50 [5] | pseudovirus neutralization IC50 [6] | pseudovirus neutralization IC50 [7]
BD55-1694 (protein) chain 1: QVQLVESGGGVVQPGRSLRLSCEASGFAFSTYPIHWVRQAPGKGLEWVAVISFDGSDKFYTDSVKGRFTISRDNSENTLYLQMNSLRVEDTAVYYCARAIPRATQKYYYSYGMDVWGQGTTVTVSS chain 2: DIVMTQTPLSLSVTPGQPASMSCKSSQSLLHSNGRTYLYWYLQRPGQSPQLLIYEVSNRISGVPDRFSGSGSGTDFTLKISRVEAEDVGVYYCMQSIELPVTFGGGTKVEIK | > 10 µg/mL | > 10 µg/mL | > 10 µg/mL | > 10 µg/mL | > 10 µg/mL | > 10 µg/mL | 0.0017 µg/mL
BD-809 (protein) chain 1: EVQLVQSGAEVKKPGESLKISCKGSGYSFTSNWIGWVRQMPGKGLEWMGIIYPYDSDTRYSPSFQGQVTISADKSISTAYLQWNSLKASDTAMYYCARRGDTQVIDFWGQGTLVTVSS chain 2: SSELTQDPAVSVALGQTVRITCQGDSLRSYSASWYQQKPRQAPILVIYAKSNRPSGIPDRFSGSSSGNTASLTITGAQAEDEADYYCSSRDSSGNHYVFGTGTQVTVL | 1.31 µg/mL | 3.14 µg/mL | 3.96 µg/mL | 3.27 µg/mL | 1.66 µg/mL | 1.72 µg/mL | 0.455 µg/mL
BD-812 (protein) chain 1: EVQLVQSGAEVKKPGESLKISCQFSEYKLISFWIAWVRQRPGKGLEWMGIIYPDDSDTKYSPSSQGQVTISADKSIRTAYLQWSSLMASDTAMYYCTSGSYYGTLDFWGQGTLVTVSS chain 2: DIEITQSPSSLSASVGDRVTISCRASQDIRTYVAWYQQRPGKVPRLLIYAASTLQSGVPSRFSGRGSGTDFTLTISSLQPEDVATYYCQQYNSAPLTFGGGAKVEIK | 3.1 µg/mL | 0.0161 µg/mL | 0.587 µg/mL | 0.0143 µg/mL | > 10 µg/mL | > 10 µg/mL | 0.002 µg/mL
BD-612 (protein) chain 1: EVQLVESGGGLVQPGGSLRLSCAASGLTVSSNYMSWVRQAPGKGLEWVSVIYSGGSTFYADSVKGRFTISRDNSKNTLYLQMNSVRAEDTAVYYCARLPYGMDVWGQGTTVTVSS chain 2: DIQMTQSPSSLSASVGDRVTITCQASQDVSKYLNWYQQKPGKAPKLLIHDASNLQTGVPSRFSGGGSGTDFTFTISSLQPEDIATYYCQQYDNLPVTFGGGTKVEIK | 5.48 µg/mL | 3.07 µg/mL | > 10 µg/mL | 4.87 µg/mL | > 10 µg/mL | > 10 µg/mL | 0.03 µg/mL
BD-813 (protein) chain 1: VQLVESGGGLVQPGGSLRLSCAASEFIVSANYMSWVRQAPGKGLEWVSVIYSGGSTFYADSVKGRFTISRDNSKNTLYLQMNSLRVEDTAVYFCARFLPTYDYFDYWGQGTLVTVSS chain 2: DIQMTQSPSSLSASVGDRVTITCRTSQSISTYLHWYQQKPGKAPKLLIYAASSLHSGVPSRFSGSGSGTHFVLTINGLQPEDFATYYCQHTDTTPLTFFGGGTKVEIK | > 10 µg/mL | > 10 µg/mL | > 10 µg/mL | > 10 µg/mL | > 10 µg/mL | > 10 µg/mL | 0.007 µg/mL
BD55-1831 (protein) chain 1: QVQLQESGPGLVKPSQTLSLTCTVSGGSISNGDYYWSWIRQPPGKGLEWIGYIHNSGSTYKKLSLRSRLTISVDTSKNQFSLKLSSVTAADTAVYYCARTASPSGAWYFDFWGRGTLVTVSS chain 2: SYVLTQPPSVSVAPGQTARITCGGNDIGSKNVHWYQQKPGQAPLLVVYDDTDRPSGIPERFSGSNSGNPATLTISRVEAGDEADYYCQVWDSSFDHVIFGGGTKLTVL | 4.64 µg/mL | 3.12 µg/mL | 4.27 µg/mL | > 10 µg/mL | > 10 µg/mL | > 10 µg/mL | 1.42 µg/mL
BD55-1957 (protein) chain 1: QVQLVQSGAEVKKPGSSVKVSCKASGGAFSSYPISWVRQAPGQGLEWMGRVIPILGIANYAQNFQGRVTITADKSSSTAYMELSSLRSEDTAVYYCARDQGYYGSSGSAYYFDYWGQGTLVTVSS chain 2: QSVLTQPPSVSGAPGQRVTISCTGSSSNIGAGYDVHWYQQLPGTAPKLLIHANSNRPSGVPDRFSGSKSGTSASLAITGLQAEDEADYYCQSYDSSLSDSVFGGGTKLTVL | 2.5 µg/mL | 1.7 µg/mL | 1.74 µg/mL | 3.64 µg/mL | > 10 µg/mL | > 10 µg/mL | 0.63 µg/mL
BD-826 (protein) chain 1: QVQLQESGPGLVKPSETLSLTCNVSGGGSISRYNWNWIRQSAGKGLEWLGQMYSSGSTSFNSSLKSRVSMSLDTSKNQFSLMLTSVTAADTAVYYCVRVLPGLAENWFDSWGQGILVTVSS chain 2: SYVLLQPPSVSVAPGKTATITCGGNNLGIKSVHWYQQKPGQAPLLVIYYDSDRPSGIPERFSGSHSGNTATLTISRVEGGDEADYYCQVWDTTDDHPLFGGGTKLTVL | 0.877 µg/mL | 0.739 µg/mL | 0.848 µg/mL | 5.52 µg/mL | > 10 µg/mL | > 10 µg/mL | 0.256 µg/mL
BD55-1970 (protein) chain 1: EVQLVESGGGLVQPGGSLRLSCVASEITVSSNYMNWVRQAPGKGLEWVSVIYSGGSTFYADSVKGRFTISRDSSKNTLFLQMNSLRVEDTAVYYCARDLDYYGMDVWGQGTTVTVSS chain 2: DIQLTQSPSFLSASVGDRVTITCRASQGISNYLAWYQQKPGKAPKLLIYAASTLQSGVPSRFSGSGSGTEFTLTISSLQPEDFATYYCQQLNSYTYPFGQGTKLEIK | > 10 µg/mL | > 10 µg/mL | > 10 µg/mL | > 10 µg/mL | > 10 µg/mL | > 10 µg/mL | 0.00732 µg/mL
BD-863 (protein) chain 1: QLQLQESGPGLVKPSETLSLTCSVSGGSIGSSTYYWGWIRQPPGKGLEWIGSVFYSGITYYNPSLKTRVTISVDTSKNQFSLKVTSVTPPDTAFYYCARVTRLMEPAGSVDSWGQGTLVTVSS chain 2: QSALTQPASVSGSLGQSITISCTGTSSDVGSYDLVSWYQQHPGKAPKFMIYEVNKRPSGVSNRFSGSKSGNTASLTISGLQTEDEAEYYCCSYVSNGALLFGGGTKVTVL | > 10 µg/mL | > 10 µg/mL | > 10 µg/mL | > 10 µg/mL | > 10 µg/mL | > 10 µg/mL | > 10 µg/mL
BD-870 (protein) chain 1: EAQLVESGGGLVQPGGSLRLSCEASGFPFSTYEMNWVRQAPGKGLEWLSKITSSGGTVLYADSVKGRFTMSRDNARDSLYLQMNSLTVEDTAVYYCARVKRVSSWFFELWGRGTLVTVSS chain 2: DIQMTQSPSTLFASVGDTVTITCRTSQSISSWVAWYQQKPGKAPKLLIYKTSSLESGVPSRFSGGGSGTEFTLTISSLQSDDFATYYCQQCDGYSTFAQGTKLEIK | > 10 µg/mL | > 10 µg/mL | > 10 µg/mL | > 10 µg/mL | > 10 µg/mL | > 10 µg/mL | 0.007 µg/mL
BD-897 (protein) chain 1: QVQLVQSGAEVKKPGSSVKVSCKTSGDTLSRDAITWVRQAPGQGLEWMGRIIPMFAIANYAPKFQGRVTITADKSTSTVYVEISSVRSEDTAVYYCARGAYQSGSSGYHLEEWGQGTLVIVSS chain 2: EIVLTQSPGTLSLSPGERATLSCRASQALSGNYLAWYQQVPGQPPRLLIYGASIRASGIPDRFSGSGSGTDFTLTISRLEPADFAVYYCHQYHNSPRTFGQGTKVEV | 0.0113 µg/mL | 0.0159 µg/mL | 0.0176 µg/mL | > 10 µg/mL | > 10 µg/mL | > 10 µg/mL | 0.005 µg/mL
BD-898 (protein) chain 1: QMQLVQSGPEVKKPGTSVKVSCKASGFNFYYSAVQWVRQARGQRLEWIGWIVVGSGNTDYAHDFKERVTITRDMSTSTAFMELISLRPEDTAIYYCAAPHCSGGTCYDGFDLWGQGTVITVSS chain 2: DIVLSQSPDTLSLSPGESAALSCRASQSVRSSYLAWYQQKPGQAPRLLIYGASSRATGIPDRFSGSGSGTDFTLTINRLEPEDFAVYYCQQYSNSPWTFGHGTKVEIK | 0.00032 µg/mL | 0.000394 µg/mL | 0.000528 µg/mL | 0.00125 µg/mL | 0.00598 µg/mL | > 10 µg/mL | 0.005 µg/mL

Reference: the supplement of paper PMC9931576
